US20250326715A1, “NOVEL MAIN PROTEASE INHIBITORS, AND COMPOSITIONS AND METHODS THEREOF” (University of Massachusetts, priority 2023, published 2025)

Experiments:
[1] = biological target: SARS-CoV-2 PL^Pro (Severe acute respiratory syndrome coronavirus 2, UniProt P0DTD1); test: Determination of IC50 values for SARS-CoV-2 PL^Pro (Z-RLRGG-AMC substrate); conditions: read-out: PL^Pro IC50; 30 nM PL^Pro, 20 min preincubation
[2] = system: SARS-CoV-2; test: Cellular antiviral assay, SARS-CoV-2 infected A549-hACE2 cells (qPCR of viral mRNA); conditions: 2 μM, 24 h
[3] = biological target: T1, SARS-CoV-2 M^Pro (Severe acute respiratory syndrome coronavirus 2, UniProt P0DTD1); test: Determination of KI values for SARS-CoV-2 M^Pro (initial velocity, competitive inhibition); type: biochemical; conditions: read-out: KI, M^Pro; estimated from the initial portion of the progress curves
[4] = system: SARS-CoV-2; test: Cellular antiviral assay, SARS-CoV-2 infected Huh7.5 cells (qPCR of viral mRNA); conditions: 2 μM, 24 h
[5] = biological target: T1, SARS-CoV-2 M^Pro; test: Determination of IC50 values for SARS-CoV-2 M^Pro (fluorogenic peptide substrate, end-point); conditions: read-out: biochemical IC50 for the inhibition of M^Pro

C#CCOCCC(=O)N[C@H](Cc1ccccc1)C(=O)N[C@@H](Cc1ccccc1)C(=O)N[C@@H](CCCNC(N)=O)C(=O)CCl
IC50 [1]: 40000 nM
antiviral activity, in words [2]: poor antiviral activity
Ki [3]: 200 nM
antiviral activity, in words [4]: poor antiviral activity

C#CCOCCC(=O)N[C@H](Cc1ccccc1)C(=O)N[C@@H](Cc1ccccc1)C(=O)N[C@@H](CCCNC(=N)N)C(=O)CCl
IC50 [5]: 20 nM
antiviral activity, in words [2]: poor antiviral activity
Ki [3]: 300 nM
antiviral activity, in words [4]: poor antiviral activity
